{
  "source": "paper PMC7954794",
  "about": "“Protein context shapes the specificity of SH3 domain-mediated interactions in vivo” (Nature Communications, 2021)",
  "molecules": {"B1": {"name": "YJL128C (protein, UniProt P08018 1-668, looked up)", "MAP kinase kinase PBS2": "MEDKFANLSLHEKTGKSSIQLNEQTGSDNGSAVKRTSSTSSHYNNINADLHARVKAFQEQRALKRSASVGSNQSEQDKGSSQSPKHIQQIVNKPLPPLPVAGSSKVSQRMSSQVVQASSKSTLKNVLDNQETQNITDVNINIDTTKITATTIGVNTGLPATDITPSVSNTASATHKAQLLNPNRRAPRRPLSTQHPTRPNVAPHKAPAIINTPKQSLSARRGLKLPPGGMSLKMPTKTAQQPQQFAPSPSNKKHIETLSNSKVVEGKRSNPGSLINGVQSTSTSSSTEGPHDTVGTTPRTGNSNNSSNSGSSGGGGLFANFSKYVDIKSGSLNFAGKLSLSSKGIDFSNGSSSRITLDELEFLDELGHGNYGNVSKVLHKPTNVIMATKEVRLELDEAKFRQILMELEVLHKCNSPYIVDFYGAFFIEGAVYMCMEYMDGGSLDKIYDESSEIGGIDEPQLAFIANAVIHGLKELKEQHNIIHRDVKPTNILCSANQGTVKLCDFGVSGNLVASLAKTNIGCQSYMAPERIKSLNPDRATYTVQSDIWSLGLSILEMALGRYPYPPETYDNIFSQLSAIVDGPPPRLPSDKFSSDAQDFVSLCLQKIPERRPTYAALTEHPWLVKYRNQDVHMSEYITERLERRNKILRERGENGLSKNVPALHMGGL"}, "B2": {"name": "YJL155C (protein, UniProt P32604 1-452, looked up)", "Fructose-2,6-bisphosphatase": "MGYSTISNDNDIKVCVIMVGLPARGKSFISQKIIRYLSWLSIKAKCFNVGNYRRDVSGNVPMDAEFFNFENTDNFKLRELAAQNAIKDIVNFFTKEDGSVAVFDATNSTRKRRKWLKDICEKNNIQPMFLESWSNDHELIINNAKDIGSTSPDYENSEPHVAEADFLERIRQYERFYEPLDPQKDKDMTFIKLVNIIEEVVINKIRTYLESRIVFYVMNIRPKPKYIWLSRHGESIYNVEKKIGGDSSLSERGFQYAKKLEQLVKESAGEINLTVWTSTLKRTQQTANYLPYKKLQWKALDELDAGVCDGMTYEEIEKEYPEDFKARDNDKYEYRYRGGESYRDVVIRLEPVIMELERQENVLIITHQAVLRCIYAYFMNVPQEESPWMSIPLHTLIKLEPRAYGTKVTKIKANIPAVSTYKEKGTSQVGELSQSSTKLHQLLNDSPLEDKF"}, "B3": {"name": "YJL201W (protein, UniProt P32525 1-599, looked up)", "Protein ECM25": "MIDINVNNIFFRSYSVDPNSGHAIYVFDSTYLPASDEIGDKQVYDLLINALMDRLVMKLPQAPYSLVIFSSGFSQRKISWVYGIKMFAKLPKETKFYLQKIFIVHESFFVRSVYQVISNAMNFNFLDSKDSQHDFPSLVHVLDLTSLSELIDITRLRISLNVYLYDYQIREHINVPEEYYNRLTPLAIRQYRQLVFDKIFKKLQNDALLCELIFQKPGNYKKVNIFLDIIKRNNYIDLSQWDIYSLASVWLNYFIKNKAKPLIPIELIPLPIVDDLKFTSETFRKIIKFNQYQDLFMVIIPFFNRIIAHGESTKHDSRTLSKALTPALCKEKLSMMTNDRLAIGSRYIKNLLDFFPEIAKEISSPPSSVSSSSTIPVLPKPRKSSPTRYSELGCLTLPRSRSPSPQRSVTSPTYTPVALQNTPVLKPKSSSRNVSSPSFNAKPPLPIKAVTRPQLSLTSNSNTDLALASSSTDTLSSPTKTPSADSLPLSNSSTDLTISDNIKEMVKDEPAKDKNSVETDIFVQQFESLTLVQNAKIKKFDKELQEKKKKNETTSKTADKFSQKGYSDIKASNKVSRLAALYEERLQGLQVMNEMKQRW"}, "B4": {"name": "YKR001C (protein, UniProt P21576 1-704, looked up)", "Vacuolar protein …": "MDEHLISTINKLQDALAPLGGGSQSPIDLPQITVVGSQSSGKSSVLENIVGRDFLPRGTGIVTRRPLVLQLINRRPKKSEHAKVNQTANELIDLNINDDDKKKDESGKHQNEGQSEDNKEEWGEFLHLPGKKFYNFDEIRKEIVKETDKVTGANSGISSVPINLRIYSPHVLTLTLVDLPGLTKVPVGDQPPDIERQIKDMLLKYISKPNAIILSVNAANTDLANSDGLKLAREVDPEGTRTIGVLTKVDLMDQGTDVIDILAGRVIPLRYGYIPVINRGQKDIEHKKTIREALENERKFFENHPSYSSKAHYCGTPYLAKKLNSILLHHIRQTLPEIKAKIEATLKKYQNELINLGPETMDSASSVVLSMITDFSNEYAGILDGEAKELSSQELSGGARISYVFHETFKNGVDSLDPFDQIKDSDIRTIMYNSSGSAPSLFVGTEAFEVLVKQQIRRFEEPSLRLVTLVFDELVRMLKQIISQPKYSRYPALREAISNQFIQFLKDATIPTNEFVVDIIKAEQTYINTAHPDLLKGSQAMVMVEEKLHPRQVAVDPKTGKPLPTQPSSSKAPVMEEKSGFFGGFFSTKNKKKLAALESPPPVLKATGQMTERETMETEVIKLLISSYFSIVKRTIADIIPKALMLKLIVKSKTDIQKVLLEKLYGKQDIEELTKENDITIQRRKECKKMVEILRNASQIVSSV"}, "B5": {"name": "YKR048C (protein, UniProt P25293 1-417, looked up)", "Nucleosome assembly protein": "MSDPIRTKPKSSMQIDNAPTPHNTPASVLNPSYLKNGNPVRAQAQEQDDKIGTINEEDILANQPLLLQSIQDRLGSLVGQDSGYVGGLPKNVKEKLLSLKTLQSELFEVEKEFQVEMFELENKFLQKYKPIWEQRSRIISGQEQPKPEQIAKGQEIVESLNETELLVDEEEKAQNDSEEEQVKGIPSFWLTALENLPIVCDTITDRDAEVLEYLQDIGLEYLTDGRPGFKLLFRFDSSANPFFTNDILCKTYFYQKELGYSGDFIYDHAEGCEISWKDNAHNVTVDLEMRKQRNKTTKQVRTIEKITPIESFFNFFDPPKIQNEDQDEELEEDLEERLALDYSIGEQLKDKLIPRAVDWFTGAALEFEFEEDEEEADEDEDEEEDDDHGLEDDDGESAEEQDDFAGRPEQAPECKQS"}, "B6": {"name": "YLR196W (protein, UniProt P21304 1-576, looked up)", "Periodic tryptophan protein 1": "MISATNWVPRGFSSEFPEKYVLDDEEVERINQLAQLNLDDAKATLEEAEGESGVEDDAATGSSNKLKDQLDIDDDLKEYNLEEYDDEEIADNEGGKDVSMFPGLSNDSDVKFHEGEKGEDPYISLPNQEDSQEEKQELQVYPSDNLVLAARTEDDVSYLDIYVYDDGAGFHSSDIPVEEGDEADPDVARGLVRDPALYVHHDLMLPAFPLCVEWLDYKVGSNSEEAANYAAIGTFDPQIEIWNLDCVDKAFPDMILGEPLDNSMVSLKSKKKKKKSKTGHITTHHTDAVLSMAHNKYFRSVLASTSADHTVKLWDLNSGNAARSLASIHSNKNVSSSEWHMLNGSILLTGGYDSRVALTDVRISDESQMSKYWSAMAGEEIETVTFASENIILCGTDSGNVYSFDIRNNENRKPVWTLKAHDAGISTLCSNKFIPGMMSTGAMGEKTVKLWKFPLDDATNTKGPSMVLSRDFDVGNVLTSSFAPDIEVAGTMVIGGVNKVLKLWDVFTNRSVRKSFKSELENVQARAKEEAQKIGKSSRIARKYTSNDNPDTVITIDDQGEDEEEREGGDEHDDMA"}, "B7": {"name": "YLR206W (protein, UniProt Q05785 1-613, looked up)", "Epsin-2": "MSKQFVRSAKNMMKGYSSTQVLVRDATANDSRTPSIDTLDDLAQRSYDSVDFFEIMDMLDKRLNDKGKYWRHVAKSLTVLDYLVRFGSENCVLWCRENFYVIKTLREFRHENESGFDEGQIIRVKAKELVSLLNDEERLREERSMNTRNRRANRAARPRPRRQRTRSNPHDSSPSYQDDLEKALEESRITAQEDEQRRRELAQYDDEDPDFQAALQLSKEEEELKQLQELQRLQKQQQSLSQFQAPLQQQQPQQQPAYYDIFGNPISQDEYLQYQYQQDQEQAMAQQRWLDQQQEQQQLAEQQYFQQQQQAAAAASALQQQQTAANMQQQQQQPADFQQPLPTGSNNPFSMDNLERQKQEQQHAQLQRQQEEARQQQEQLKLQQLQRQQQEEAQLHQKRQEEAQLQQQQAQLLQQQAQFQQQQPLKQTRTGNQSISDKYSDLNTLLATGTGIDTFGNTGEARIPAQHTKTGTFINSQGTGYKQVTNEPKNNPFLSNQYTGLPSTNIVPTQTGYGFGNQPQSPPTNSPQQNPTGISYSQPQQQQQPQQQPQYMQNFQQQQPQYAQNFQQQPQYTQNYQQQPQYIQPHQQQQQQQQQQQQQQGYTPDQGVSLIDL"}, "B8": {"name": "YLR330W (protein, UniProt Q12114 1-671, looked up)", "Chitin biosynthesis protein …": "MSSVDVLLTVGKLDASLALLTTQDHHVIEFPTVLLPENVKAGSIIKMQVSQNLEEEKKQRNHFKSIQAKILEKYGTHKPESPVLKIVNVTQTSCVLAWDPLKLGSAKLKSLILYRKGIRSMVIPNPFKVTTTKISGLSVDTPYEFQLKLITTSGTLWSEKVILRTHKMTDMSGITVCLGPLDPLKEISDLQISQCLSHIGARPLQRHVAIDTTHFVCNDLDNEESNEELIRAKHNNIPIVRPEWVRACEVEKRIVGVRGFYLDADQSILKNYTFPPVNEEELSYSKENEPVAEVADENKMPEDTTDVEQVASPNDNESNPSEAKEQGEKSGHETAPVSPVEDPLHASTALENETTIETVNPSVRSLKSEPVGTPNIEENKADSSAEAVVEEPNEAVAESSPNEEATGQKSEDTDTHSNEQADNGFVQTEEVAENNITTESAGENNEPADDAAMEFGRPEAEIETPEVNESIEDANEPAEDSNEPVEDSNKPVKDSNKPVEDSNKPVEDSNKPVEDSNKPVEDANEPVEDTSEPVEDAGEPVQETNEFTTDIASPRHQEEDIELEAEPKDATESVAVEPSNEDVKPEEKGSEAEDDINNVSKEAASGESTTHQKTEASASLESSAVTEEQETTEAEVNTDDVLSTKEAKKNTGNSNSNKKKNKKNKKKGKKK"}, "B9": {"name": "YLR337C (protein, UniProt P37370 1-817, looked up)", "Verprolin": "MAGAPAPPPPPPPPALGGSAPKPAKSVMQGRDALLGDIRKGMKLKKAETNDRSAPIVGGGVVSSASGSSGTVSSKGPSMSAPPIPGMGAPQLGDILAGGIPKLKHINNNASTKPSPSASAPPIPGAVPSVAAPPIPNAPLSPAPAVPSIPSSSAPPIPDIPSSAAPPIPIVPSSPAPPLPLSGASAPKVPQNRPHMPSVRPAHRSHQRKSSNISLPSVSAPPLPSASLPTHVSNPPQAPPPPPTPTIGLDSKNIKPTDNAVSPPSSEVPAGGLPFLAEINARRSERGAVEGVSSTKIQTENHKSPSQPPLPSSAPPIPTSHAPPLPPTAPPPPSLPNVTSAPKKATSAPAPPPPPLPAAMSSASTNSVKATPVPPTLAPPLPNTTSVPPNKASSMPAPPPPPPPPPGAFSTSSALSASSIPLAPLPPPPPPSVATSVPSAPPPPPTLTTNKPSASSKQSKISSSSSSSAVTPGGPLPFLAEIQKKRDDRFVVGGDTGYTTQDKQEDVIGSSKDDNVRPSPISPSINPPKQSSQNGMSFLDEIESKLHKQTSSNAFNAPPPHTDAMAPPLPPSAPPPPITSLPTPTASGDDHTNDKSETVLGMKKAKAPALPGHVPPPPVPPVLSDDSKNNVPAASLLHDVLPSSNLEKPPSPPVAAAPPLPTFSAPSLPQQSVSTSIPSPPPVAPTLSVRTETESISKNPTKSPPPPPSPSTMDTGTSNSPSKNLKQRLFSTGGSTLQHKHNTHTNQPDVDVGRYTIGGSNSIVGAKSGNERIVIDDSRFKWTNVSQMPKPRPFQNKTKLYPSGKGSSVPLDLTLFT"}},
  "note": "The amount applied is not stated for every result.",
  "data": [
    {"test_system": "ABP1", "test": "DHFR-PCA on solid medium, bait ABP1 (Fig. 1B)", "assay_type": "cell-based, Saccharomyces cerevisiae", "set-up": "key: 0: SH3-independent; 1: SH3-dependent PPIs; 2: SH3-inhibited PPIs", "conditions": "bait ABP1, label = prey", "excerpt": "Supplement 41467_2021_21873_MOESM8_ESM.xlsx, sheet \"Fig1B\" | column: medsize; medrep; Ratio; Score", "values": [
      {"molecule": "B1", "Score": 0},
      {"molecule": "B2", "Score": 0},
      {"molecule": "B3", "Score": 0},
      {"molecule": "B4", "Score": 0},
      {"molecule": "B5", "Score": 0},
      {"molecule": "B6", "Score": 0},
      {"molecule": "B7", "Score": 0},
      {"molecule": "B8", "Score": 0},
      {"molecule": "B9", "Score": 0}
    ]}
  ]
}
